Experimental data taken from patent US20140004137A1, “IMMUNE RESTRICTED PEPTIDES WITH INCREASED EFFICACY” (priority 2010, published 2014).

Target: HLA-A0201 (Homo sapiens, UniProt P04439, D140Y/D185E/D98H/E176V/E277Q/G131W/G231S/I119V/I121R/I166T/I218V/L300P/L318F/N151K/N90K/P208A/P217A/Q86G/Q94H/R138H/R169H/T345S)
Format: binding

**Q.** What does the source list for [3-PYRA]LCTLVAML?
**A.** % inhibition at T = 4 H (FP 4 h): 75%; % inhibition at T = 24 H (FP 24 h): 72%
